Our source for the IC50 values is PMC12724200 (mSphere, 2025).

Sequences of proteins named here, by UniProt entry; tags and fusion partners are left off. Residues count along the entry.
UniProt A0A679LAX5, 1-690: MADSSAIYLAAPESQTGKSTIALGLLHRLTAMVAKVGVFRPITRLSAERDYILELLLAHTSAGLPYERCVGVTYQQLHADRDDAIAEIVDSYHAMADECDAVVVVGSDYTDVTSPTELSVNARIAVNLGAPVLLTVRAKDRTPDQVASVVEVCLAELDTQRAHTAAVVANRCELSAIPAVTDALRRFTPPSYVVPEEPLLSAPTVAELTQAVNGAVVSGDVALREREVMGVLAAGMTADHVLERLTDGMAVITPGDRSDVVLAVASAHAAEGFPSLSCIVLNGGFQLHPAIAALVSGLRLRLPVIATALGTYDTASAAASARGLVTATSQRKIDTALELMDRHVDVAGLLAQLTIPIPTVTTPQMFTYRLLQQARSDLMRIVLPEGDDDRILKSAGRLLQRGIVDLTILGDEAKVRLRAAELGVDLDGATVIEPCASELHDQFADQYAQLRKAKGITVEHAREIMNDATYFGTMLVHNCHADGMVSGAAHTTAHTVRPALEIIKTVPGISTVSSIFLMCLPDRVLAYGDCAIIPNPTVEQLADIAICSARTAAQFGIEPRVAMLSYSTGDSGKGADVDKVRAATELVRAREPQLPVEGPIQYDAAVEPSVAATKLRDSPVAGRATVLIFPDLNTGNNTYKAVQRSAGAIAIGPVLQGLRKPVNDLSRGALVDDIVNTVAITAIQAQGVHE

The test concerns the target recombinant wild-type M. bovis BCG PTA (Mycobacterium bovis, UniProt A0A679LAX5). The class given is biochemical.

By IC50 is commonly meant the point on the concentration scale where inhibition reaches its midpoint. In the case of Dimethyldithiocarbamate [DMDC], the IC50 is 951 µM.
